Test results from patent EP1210336B1, “SUBSTITUTED BENZIMIDAZOLES AS NON-NUCLEOSIDE INHIBITORS OF REVERSE TRANSCRIPTASE” (THE UNITED STATES OF AMERICA, as represented by the …, priority 1999, dated 2001).
Certain results were filed several times, with different values. This list holds those alone. The source may hold further records. The values listed for one entry differ, and nothing given here explains why; they may come from other doses, times, organisms or constructs than stated.

System: HIV-1 variant K101E
Test: Cytopathic cell killing assay, cross-resistance profile, infected MT-4 cells
Type: cell-based
Conditions: Table 10 (values in µM); isolate K101E; listed as NH2
From the text: In these Tables, antiviral data are reported as the quantity of drug in µM required to reduce cell killing or virus production by 50% (EC50). The various HIV isolates tested in the Figures are those corresponding to wild-type virus (NL4-3) and the other strains listed by their RT mutations. The three 4xAZT isolates included in the Figures represent AZT drug-resistant variants. For example, the 4xAZT/L100I isolate has five mutations: four mutations confer increased resistance to AZT, and the other mutation is located within the NNRTI binding pocket. TZB and nevir. (nevirapine) are two well-known NNRTIs, included in this experiment for comparison purposes. […]
In this Example, the antiviral and cellular toxicity of NNRTIs was investigated, using the cytopathic cell killing assay described by Yang (Yang et al., "Characteristics of a Group of Non-nucleoside Reverse Transcriptase Inhibitors with Structural Diversity and Potent Anti-Human Immunodeficiency Virus Activity," Leukemia 9:S75-S85 [1995]). […] The cells were then infected with HIV virus (either mutant or WT), at a multiplicity of infection (MOI) previously determined to provide complete cell killing by 6 days of culture post-infection (e.g., MOI of 0.01-0.05). […]

With `Nc1cccc2c1nc(-c1c(F)cccc1F)n2Cc1c(F)cccc1F` the EC50 was > 50 µM and > 20 µM.
